PubChem BioAssay AID624099 | ICCB-Longwood | 2012

Purpose: 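Human genes that papillomavirus E2 requires to repress the HPV18 LCR promoter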 (primary screen)
Cells: human C33A cervical carcinoma cells (HPV-negative) stably expressing BPV1 E2 and an HPV18 LCR luciferase reporter
Knock-down reagent: siRNA pool against human genes, 40 nM
Timing: 72 h
Measured: 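HPV18 LCR reporter light per well, converted to plate-wise z-scores that exclude control wells, and averaged over triplicate plates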
Scale: mean z-score and z-score: higher = stronger reporter signal, weaker E2 silencing
Active means: 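Hit if mean z-score reaches 2 and two or more of three replicate z-scores also reach 2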
This is a random part of about 21,000 deposited reagents. 497 of all reagents (2.4%) were called active. 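Higher z means weaker E2 silencing; only reporter increases were scored, and knock-downs that hurt cell survival may mask genuine repressor factors.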 Unmarked entries are inactive.

What is on record for WIPI2 (WD repeat domain, phosphoinositide interacting 2)?
mean z-score: 0.23; z-score, replicate A: 0.43; z-score, replicate B: 0.1; z-score, replicate C: 0.15

What is on record for PLA2G15 (phospholipase A2 group XV)?
mean z-score: 0.8; z-score, replicate A: 0.52; z-score, replicate B: 0.95; z-score, replicate C: 0.94

For MMP12 (matrix metallopeptidase 12), what was measured?
mean z-score: -0.06; z-score, replicate A: 0.23; z-score, replicate B: -0.19; z-score, replicate C: -0.21

With AMIGO1 (adhesion molecule with Ig like domain 1), how do the results read?
mean z-score: 0.01; z-score, replicate A: 0.2; z-score, replicate B: -0.02; z-score, replicate C: -0.16

With AKAP10 (A-kinase anchoring protein 10), how do the results read?
mean z-score: 1.38; z-score, replicate A: 1.28; z-score, replicate B: 1.42; z-score, replicate C: 1.44

What is on record for FBXO34 (F-box protein 34)?
mean z-score: 0.26; z-score, replicate A: 0.15; z-score, replicate B: 0.46; z-score, replicate C: 0.17

For SMG9 (SMG9 nonsense mediated mRNA decay factor), what was measured?
mean z-score: 0.31; z-score, replicate A: 0.45; z-score, replicate B: -0.12; z-score, replicate C: 0.59

For FA2H (fatty acid 2-hydroxylase), what was measured?
mean z-score: -0.42; z-score, replicate A: -0.21; z-score, replicate B: -0.52; z-score, replicate C: -0.52

How did the screen score LOC100289495?
mean z-score: 0.57; z-score, replicate A: 0.78; z-score, replicate B: 0.4; z-score, replicate C: 0.52

How did the screen score BCLAF1 (BCL2 associated transcription factor 1)?
mean z-score: -0.27; z-score, replicate A: -0.26; z-score, replicate B: -0.33; z-score, replicate C: -0.23

With COX7A2L (cytochrome c oxidase subunit 7A2 like), how do the results read?
mean z-score: 2.29 (active); z-score, replicate A: 2.3; z-score, replicate B: 2.3; z-score, replicate C: 2.27

How did the screen score GSG1 (germ cell associated 1)?
mean z-score: 0.82; z-score, replicate A: 0.6; z-score, replicate B: 0.82; z-score, replicate C: 1.04

How did the screen score BMP3 (bone morphogenetic protein 3)?
mean z-score: 1.77; z-score, replicate A: 2.31; z-score, replicate B: 1.55; z-score, replicate C: 1.45

With PLSCR4 (phospholipid scramblase 4), how do the results read?
mean z-score: 1.23; z-score, replicate A: 0.98; z-score, replicate B: 1.29; z-score, replicate C: 1.41

Entries listed so far called active, once more:
COX7A2L (cytochrome c oxidase subunit 7A2 like) → mean z-score = 2.29 (active); z-score, replicate A = 2.3; z-score, replicate B = 2.3; z-score, replicate C = 2.27

The results go on:
For IKZF5 (IKAROS family zinc finger 5), what was measured?
mean z-score: -0.09; z-score, replicate A: 0.33; z-score, replicate B: 0; z-score, replicate C: -0.59

With PALMD (palmdelphin), how do the results read?
mean z-score: 1.81; z-score, replicate A: 1.6; z-score, replicate B: 1.9; z-score, replicate C: 1.94

For NRG2 (neuregulin 2), what was measured?
mean z-score: 0.58; z-score, replicate A: 0.22; z-score, replicate B: 0.55; z-score, replicate C: 0.98

For MGC13053 (retired record), what was measured?
mean z-score: -1.16; z-score, replicate A: -1.14; z-score, replicate B: -0.84; z-score, replicate C: -1.5

How did the screen score EFCC1 (EF-hand and coiled-coil domain containing 1)?
mean z-score: 0.35; z-score, replicate A: 0.06; z-score, replicate B: 0.43; z-score, replicate C: 0.58

What is on record for CLPTM1L (CLPTM1 like)?
mean z-score: 0.97; z-score, replicate A: 0.7; z-score, replicate B: 1.07; z-score, replicate C: 1.13

What did the screen give for SUGT1P4-STRA6LP-CCDC180 (SUGT1P4-STRA6LP-CCDC180 readthrough)?
mean z-score: 0.17; z-score, replicate A: 0.55; z-score, replicate B: 0.48; z-score, replicate C: -0.52

For USP39 (ubiquitin specific peptidase 39), what does the deposit list?
mean z-score: 1.42; z-score, replicate A: 1.82; z-score, replicate B: 1.41; z-score, replicate C: 1.04

What is on record for ROPN1 (rhophilin associated tail protein 1)?
mean z-score: -0.58; z-score, replicate A: -0.71; z-score, replicate B: -0.63; z-score, replicate C: -0.39

Which result is listed for LOC286404 (retired record)?
mean z-score: 0.75; z-score, replicate A: 0.99; z-score, replicate B: 0.72; z-score, replicate C: 0.55

What is on record for FLJ46211 (retired record)?
mean z-score: -0.24; z-score, replicate A: -0.21; z-score, replicate B: -0.13; z-score, replicate C: -0.38

Which result is listed for LOC400125 (retired record)?
mean z-score: 0.45; z-score, replicate A: 0.42; z-score, replicate B: 0.28; z-score, replicate C: 0.65

For ALDH8A1 (aldehyde dehydrogenase 8 family member A1), what does the deposit list?
mean z-score: 0.62; z-score, replicate A: 0.96; z-score, replicate B: 0.36; z-score, replicate C: 0.53
